For some of these results: No signal at the amounts used counts as a negative. Construct, isoform or probe ends are uncertain for at least one entry. For some of these results: A weaker result is weaker than the reference pair of the same experiment.
What was measured:
[1] = biological target: MtrR(R176A) (Neisseria gonorrhoeae) (UniProt P39897); test: EMSA; conditions: taurodeoxycholate 5-10 mM; EMSA: 20 mM Tris pH 8.0, 200 mM NaCl, 10% glycerol, 1 mM TCEP, 1 ug poly(dI-dC), room temperature, 2% agarose TAE; recombinant protein; residues 1-210; protein details: N-terminal His6 removed by TEV
[2] = biological target: MtrR(R176E) (Neisseria gonorrhoeae) (UniProt P39897); test: EMSA; conditions: taurodeoxycholate 5-10 mM; EMSA: 20 mM Tris pH 8.0, 200 mM NaCl, 10% glycerol, 1 mM TCEP, 1 ug poly(dI-dC), room temperature, 2% agarose TAE; recombinant protein; residues 1-210; protein details: N-terminal His6 removed by TEV
[3] = biological target: MtrR(W136L) (Neisseria gonorrhoeae) (UniProt P39897); test: EMSA; conditions: EMSA: 20 mM Tris pH 8.0, 200 mM NaCl, 10% glycerol, 1 mM TCEP, 1 ug poly(dI-dC), room temperature, 2% agarose TAE, recombinant protein, residues 1-210, protein details: N-terminal His6 removed by TEV
[4] = biological target: MtrR (Neisseria gonorrhoeae) (UniProt P39897); test: EMSA; conditions: EMSA: 20 mM Tris pH 8.0, 200 mM NaCl, 10% glycerol, 1 mM TCEP, 1 ug poly(dI-dC), room temperature, 2% agarose TAE, recombinant …, residues 1-210, protein details: His6 removed by thrombin
[5] = biological target: MtrR (Neisseria gonorrhoeae) (UniProt P39897); test: fluorescence polarization; conditions: FP: 20 mM Tris-HCl pH 8.0, 100 mM NaCl, 2.5% glycerol, 1 nM DNA, temperature not stated, recombinant protein, residues 1-210, protein details: His6 removed by thrombin
[6] = biological target: MtrR WT (codon-optimized, pMCSG7) (Neisseria gonorrhoeae) (UniProt P39897); test: fluorescence polarization; conditions: no bile salt, value assigned to WT since mutants are within 5-fold; FP: 20 mM Tris-HCl pH 8.0, 100 mM NaCl, 2.5% glycerol, 1 nM DNA, temperature not stated; recombinant protein; residues 1-210; protein details: N-terminal His6 removed by TEV

Row | Sequence | binding result [1] | binding result [2] | binding result ([3]; chenodeoxycholate 5-10 mM) | binding result ([3]; taurodeoxycholate 5-10 mM) | binding result ([4]; chenodeoxycholate 2-3 mM) | binding result ([4]; taurodeoxycholate 2-3 mM) | Kd ([5]; 1 mM chenodeoxycholate) [nM] | Kd ([5]; 1 mM taurodeoxycholate) [nM] | binding result ([5]; 5 mM chenodeoxycholate) | Kd ([5]; 5 mM glycocholate) [nM] | Kd ([5]; 5 mM taurocholate) [nM] | binding result ([5]; 5 mM taurodeoxycholate) | Kd ([5]; 10 mM CAPS pH 8.0) [nM] | Kd ([5]; 10 mM glycocholate) [nM] | Kd ([5]; 10 mM taurocholate) [nM] | Kd [6] [nM]
1 | TTTTTATCCGTGCAATCGTGTATGTAT (double strand) [mtrC (mtrCDE) operator 27-mer, unlabeled] | binds more weakly | binds more weakly | binds more weakly | binds more weakly | binds more weakly | binds more weakly |  |  |  |  |  |  |  |  |  | 
2 | TTTTTATCCGTGCAATCGTGTATGTAT (double strand) [mtrC (mtrCDE) operator 27-mer, fluorescein] |  |  |  |  |  |  | 150 | 500 | no binding | 90 | 130 | no binding | 1200 | 110 | 310 | 38

Source: PMC6755732, “Structural, Biochemical, and In Vivo Characterization of MtrR-Mediated Resistance to Innate Antimicrobials by the Human Pathogen Neisseria gonorrhoeae” (Journal of Bacteriology, 2019)
